In patent US20120107933A1 (GOVERNMENT OF THE UNITED STATES AS REPRESENTED BY THE …, published 2012):

Molecular target: human mesothelin on the cell surface (A431/H9 transfectants and human cancer cell lines) (human) (UniProt Q13421)
Test: cell-based or functional assay

HN2 scFv immunotoxin (HN2 scFv fused to PE38) (from UniProt P11439 278-389; P11439 406-638)
Cytotoxic Assays (WST), IC50 of cell viability, H226 cells: 0.08 µg/mL
